A mixed list of measured activities; the numbers were collected in NIAID ChemDB.

Shared fields: host cell toxicity; cell line: VERO; read-out: CC50

CCn is the concentration with n% toxicity to the cells. Blank or dashed fields: not listed here. Rows are shuffled and stem from different studies.

structure | method | result
Clc1ccc(/C(Cn2ccnc2)=N/OC/C=C/c2ccccc2)c(Cl)c1 | - | 1.5 µg/mL
CCc1nc2ccccc2n1CCCCSc1ccc2ccccc2n1 | luminescence | 7 µM
Cc1cn2c(C(=O)NCc3ccc(N4CCOCC4)cc3)c(C)nc2s1 | fluorescence | 98 µM
CCOC(=O)c1[nH]c2ccc(NC(=O)OC(C)(C)C)cc2c1C | resazurin | >160 µM
Nc1nccc2c1nnn2[C@H]1CC[C@@H](CO)O1 | trypan blue | >387 µM
Clc1ccc(/C(Cn2ccnc2)=N/OCc2ccc(-c3ccccc3)cc2)c(Cl)c1 | - | 3 µg/mL
COc1ccc2nc(Cl)c(/C=C/C(=O)c3cc(C)cs3)cc2c1 | MTS | 31.6 µM
CCCCS(=O)(=O)Nc1ccc2[nH]c(CNC(=O)c3ccccc3)c(C)c2c1 | resazurin | 130 µM
COc1nc(N)c2ncn([C@H]3C[C@H](N=[N+]=[N-])[C@@H](CO)O3)c2n1 | MTS | >100 µM
Cc1ccc(N2C(=O)CCC2(C#N)c2ccc(OCc3c(Cl)cccc3Cl)cc2)cc1 | absorbance | 52.9 µM
O=C(NS(=O)(=O)OC[C@H]1O[C@@H](n2ccc(=O)[nH]c2=O)[C@H](O)[C@@H]1O)O[C@H]1O[C@H](COC(=O)c2ccccc2)[C@@H](OC(=O)c2ccccc2)[C@H](OC(=O)c2ccccc2)[C@@H]1OC(=O)c1ccccc1 | - | 200 µg/mL
CCCCS(=O)(=O)Nc1ccc2[nH]c(C(=O)N3CCN(C(=O)OC(C)(C)C)CC3)c(C)c2c1 | resazurin | 52 µM
CC(C)[C@@H]1NC(=O)[C@@H](C(C)C)OC(=O)[C@H](C(C)C)N(C)C(=O)[C@@H](C(C)C)OC(=O)[C@H](C(C)C)N(C)C(=O)[C@@H](C(C)C)OC1=O | absorbance | 13 µM
CC(C)c1ccc(C2(CN)CCC(=O)N2c2ccccc2)cc1 | absorbance | 33 µM
COc1cccc(CNC(=O)c2c(C)nc3sc(C)cn23)c1 | fluorescence | >100 µM
FC(F)(F)c1ccccc1Sc1cc2ccccc2[n+](CCCCCc2ccccc2)c1 | neutral red | >10 µg/mL
Nc1nccc2c1nnn2[C@H]1C[C@H](O)[C@@H](CO)O1 | trypan blue | >396 µM
O=C(NC12CC3CC(CC(C3)C1)C2)c1cc(=O)c2c(Br)cccc2[nH]1 | visual reading / absorbance | 39.87 µM
Cc1ccc(N2C(=O)CCC2(CN)c2ccccc2OCc2ccccc2)cc1 | absorbance | >100 µM
CC(=O)OC[C@H]1O[C@@H](OC(=O)NS(=O)(=O)OC[C@H]2O[C@@H](n3ccc(=O)[nH]c3=O)[C@H](OC(C)C)[C@@H]2OC(C)C)[C@@H](OC(C)=O)[C@@H](OC(C)=O)[C@@H]1OC(C)=O | - | >100 µg/mL
CCCCS(=O)(=O)Nc1ccc2[nH]c(C(=O)O)c(C)c2c1 | resazurin | >160 µM
CC/C=C\C/C=C\C/C=C\C/C=C\C/C=C\CCCC(=O)OC(CO[C@H]1O[C@H](CS(=O)(=O)O)[C@@H](O)[C@H](O)[C@H]1O)OC(=O)CCCCCCCCCCCCCCC | neutral red | 72 µg/mL
Fc1ccc(/C(Cn2ccnc2)=N\OC/C=C/c2ccccc2)cc1 | - | 6 µg/mL
N#CC1(c2ccccc2)CCCN1C(=O)c1ccccc1Br | absorbance | >100 µM
OC[C@H]1O[C@@H](n2nnc3c(Cl)nccc32)[C@H](O)[C@@H]1O | trypan blue | >370 µM
CCc1nc2ccc(C)cc2n1CCCCNc1ccc(OC)cc1 | luminescence | 14 µM
CCc1nc2ccccc2n1CCCCNc1ccc(OC)cc1 | luminescence | >100 µM
Cc1ccc2nc(Cl)c(/C=C/C(=O)c3cccc4ccccc34)cc2c1 | MTS | 13 µM
CCCCCCCCCCCCCCCC(=O)OC[C@H]1O[C@H](OC(=O)NS(=O)(=O)OC[C@H]2O[C@@H](n3ccc(=O)[nH]c3=O)[C@H](OC(C)C)[C@@H]2OC(C)C)[C@H](OC(=O)CCCCCCCCCCCCCCC)[C@@H](OC(=O)CCCCCCCCCCCCCCC)[C@@H]1OC(=O)CCCCCCCCCCCCCCC | - | 50 µg/mL
NCC1(c2ccccc2)CCC(=O)N1Cc1ccccc1 | absorbance | >100 µM
Fc1ccc(/C(Cn2ccnc2)=N/OCc2ccccc2)cc1 | - | 8 µg/mL
COc1ccc2nc(Cl)c(/C=C/C(=O)c3ccc(I)s3)cc2c1 | MTS | 17.6 µM
C(=C\c1ccccc1)/CO/N=C(\Cn1ccnc1)c1ccccc1 | - | 6 µg/mL
[N-]=[N+]=N[C@H]1C[C@H](n2cnc3c(N)nc(Cl)nc32)O[C@@H]1CO | MTS | >100 µM
c1ccc(OCCCCn2ccnc2)cc1 | luminescence | >50 µM
Nc1nccc2c1ncn2[C@H]1CC[C@@H](CO)O1 | trypan blue | >429 µM
O=C(O[C@@H]1[C@@H](c2c(O)cc(O)c3c2O[C@H](c2cc(O)c(O)c(O)c2)[C@H](OC(=O)c2cc(O)c(O)c(O)c2)C3)c2c(O)cc(O)cc2O[C@@H]1c1cc(O)c(O)c(O)c1)c1cc(O)c(O)c(O)c1 | XTT | 35.5 µM
Cc1cc(C)c2cc(C(=O)N[C@H]3CC[Si](C)(C)C3)[nH]c2c1 | visual reading / absorbance | >64 µg/mL
Oc1ccc(Sc2cc3ccccc3[n+](CCCCCC3CCCCC3)c2)cc1 | neutral red | >10 µg/mL
Cc1cn2c(C(=O)NCc3ccc(N4CCOCC4)c(F)c3)c(C)nc2s1 | fluorescence | >100 µM
CC(C)O[C@@H]1[C@H](OC(C)C)[C@@H](COCCCC2O[C@H](COC(=O)c3ccccc3)[C@@H](OC(=O)c3ccccc3)[C@H](OC(=O)c3ccccc3)[C@H]2OC(=O)c2ccccc2)O[C@H]1n1ccc(=O)[nH]c1=O | - | 75 µg/mL
COc1ccc(C(=O)N2CCCC2(C#N)c2ccccc2)cc1[N+](=O)[O-] | absorbance | >100 µM
Cc1ccc2nc(Cl)c(/C=C/C(=O)c3sccc3Br)cc2c1 | MTS | 87.9 µM
CCc1nc2ccccc2n1CCCNc1ccc(C)cc1 | luminescence | 31 µM
CCCCC1C(=O)N(c2ccccc2)N(c2ccc(O)cc2)C1=O | MTS | >200 µM
Fc1ccc(Sc2cc3ccccc3[n+](CCCCCc3ccccc3)c2)cc1 | neutral red | >10 µg/mL
Clc1ccc(/C(Cn2ccnc2)=N\OCc2cccc3ccccc23)c(Cl)c1 | - | 12 µg/mL
Clc1ccc(SCCCCn2ccnc2)cc1 | luminescence | 40 µM
FC(F)(F)c1cccc(Sc2cc3ccccc3[n+](CCCCCc3ccccc3)c2)c1 | neutral red | >10 µg/mL
NCC1(c2ccc(OCc3ccccc3)cc2)CCC(=O)N1Cc1ccccc1 | absorbance | 13.1 µM
Nc1ncnc2c1nnn2[C@H]1C[C@H](O)[C@@H](CO)O1 | trypan blue | >396 µM
C=C[C@]1(C)C2=C3c4c([nH]c5cccc(c45)C(C)(C)[C@H]3C[C@H]1Cl)C(C)(C)C(C#N)=C2 | MTS | 40.8 µM
CCc1nc2ccccc2n1CCCNc1ccc(C)c(Br)c1 | luminescence | 11 µM
[N-]=[N+]=N[C@H]1C[C@H](n2cnc3c(NC4CC4)nc(Cl)nc32)O[C@@H]1CO | MTS | >100 µM
Cc1cn2c(C(=O)NCc3ccc(C(F)(F)F)cc3)c(C)nc2s1 | fluorescence | >100 µM
CCc1nc2ccccc2n1CCCCSc1nnnn1C | luminescence | >50 µM